Measurements published in patent US10786484B2, “Mono- or di-substituted indole derivatives as dengue viral replication inhibitors” (Janssen Pharmaceuticals, Inc., priority 2015, dated 2020).

How the values were obtained:
Type in all cases: cell-based, Dengue virus
[1] = system: DENV-2 16681 strain labeled with eGFP; assay: DENV-2 antiviral assay (eGFP fluorescence read-out in Vero cells); settings: SI=CC50/EC50, DENV-2 antiviral assay
Procedure: The antiviral activity of all the compounds of the invention was tested against the DENV-2 16681 strain which was labeled with enhanced green fluorescent protein (eGPF). The culture medium consists of minimal essential medium supplemented with 2% of heat-inactivated fetal calf serum, 0.04% gentamycin (50 mg/mL) and 2 mM of L-glutamine. Vero cells, obtained from ECACC, were suspended in culture medium and 25 μL was added to 384-well plates (2500 cells/well), which already contain the antiviral compounds. Typically, these plates contain a 5-fold serial dilution of 9 dilution steps of the test compound at 200 times the final concentration in 100% DMSO (200 nL). […] Finally, each plate contains wells which are assigned as virus controls (containing cells and virus in the absence of compound), cell controls (containing cells in the absence of virus and compound) and medium controls (containing medium in the absence of cells, virus and compounds). To the wells assigned as medium control, 25 μL of culture medium was added instead of Vero cells. Once the cells were added to the plates, the plates were incubated for 30 minutes at room temperature to allow the cells to distribute evenly within the wells. Next, the plates were incubated in a fully humidified incubator (37° C., 5% CO2) until the next day. Then, DENV-2 strain 16681, labeled with eGFP, was added at a multiplicity of infection (MOI) of 0.5. Therefore, 15 μL of virus suspension was added to all the wells containing test compound and to the wells assigned as virus control. In parallel, 15 μL of culture medium was added to the medium and cell controls. Next, the plates were incubated for 3 days in a fully humidified incubator (37° C., 5% CO2). At the day of the read out, the eGFP fluorescence was measured using an automated fluorescence microscope at 488 nm (blue laser). Using an in-house LIMS system, inhibition dose response curves for each compound were calculated and the half maximal effective concentration (EC50) was determined. Therefore, the percent inhibition (I) for every test concentration is calculated using the following formula: I=100*([…])/(SVC−SCC); ST, SCC and SVC are the amount of eGFP signal in the test compound, cell control and virus control wells, respectively. The EC50 represents the concentration of a compound at which the virus replication is inhibited with 50%, as measured by a 50% reduction of the eGFP fluorescent intensity compared to the virus control. The EC50 is calculated using linear interpolation (Table 1).

DENV-1 strain TC974#666 = assay: Tetravalent RT-qPCR assay Protocol A, serotype 1; settings: RT-qPCR serotype 1 TC974#666
Procedure: (§1) The antiviral activity of the compounds of the invention was tested against DENV-1 strain TC974#666 (NCPV), DENV-2 strain 16681, DENV-3 strain H87 (NCPV) and DENV-4 strains H241 (NCPV) and EDEN (SG/06K2270DK1/2005; GenBank accession number QG398256) in a RT-qPCR assay. Therefore, Vero cells were infected with either DENV-1, or -2, or -3, or -4 in the presence or absence of test compounds. At day 3 post-infection, the cells were lysed and cell lysates were used to prepare cDNA of both a viral target (the 3′UTR of DENV; Table 2) and a cellular reference gene (β-actin, Table 2). Subsequently, a duplex real time PCR was performed on a Lightcycler480 instrument. The generated Cp value is inversely proportional to the amount of RNA expression of these targets. Inhibition of DENV replication by a test compound results in a shift of Cp's for the 3′UTR gene. On the other hand, if a test compound is toxic to the cells, a similar effect on β-actin expression will be observed. The comparative ΔΔCp method is used to calculate EC50, which is based on the relative gene expression of the target gene (3′UTR) normalized with the cellular housekeeping gene (β-actin). In addition, CC50 values are determined based on the Cp values acquired for the housekeeping gene β-actin.
(§2) The culture medium consisted of minimal essential medium supplemented with 2% of heat-inactivated fetal calf serum, 0.04% gentamycin (50 mg/mL) and 2 mM of L-glutamine. Vero cells, obtained from ECACC, were suspended in culture medium and 75 μL/well was added in 96-well plates (10000 cells/well), which already contain the antiviral compounds. […] In addition, each plate contains wells which are assigned as virus controls (containing cells and virus in the absence of compound) and cell controls (containing cells in the absence of virus and compound). Once the cells were added in the plates, the plates were incubated in a fully humidified incubator (37° C., 5% CO2) until the next day. Dengue viruses serotype-1, 2, 3 and 4 were diluted in order to obtain a Cp of ˜22-24 in the assay. Therefore, 25 μL of virus suspension, was added to all the wells containing test compound and to the wells assigned as virus control. In parallel, 25 μL of culture medium was added to the cell controls. Next, the plates were incubated for 3 days in a fully humidified incubator (37° C., 5% CO2). After 3 days, the supernatant was removed from the wells and the cells were washed twice with ice-cold PBS (−100 μL). The cell pellets within the 96-well plates were stored at −80° C. for at least 1 day. Next, RNA was extracted using the Cells-to-CT™ lysis kit, according to the manufacturer's guideline (Life Technologies). The cell lysates can be stored at −80° C. or immediately used in the reverse transcription step.
(§3) In preparation of the reverse transcription step, mix A (table 3A) was prepared and 7.57 μL/well was dispensed in a 96-well plate. After addition of 5 μL of the cell lysates, a five minute denaturation step at 75° C. was performed (table 3B). Afterwards, 7.43 μL of mix B was added (table 3C) and the reverse transcription step was initiated (table 3D) to generate cDNA.
(§4) Finally, a RT-qPCR mix was prepared, mix C (table 4A), and 22.02 μL/well was dispensed in 96-well LightCycler qPCR plates to which 3 μL of cDNA was added and the qPCR was performed according to the conditions in table 4B on a LightCycler 480.
(§5) Using the LightCycler software and an in-house LIMS system, dose response curves for each compound were calculated and the half maximal effective concentration (EC50) and the half maximal cytotoxic concentration (CC50) were determined (Tables 5-8).

DENV-2 strain 16681 = assay: Tetravalent RT-qPCR assay Protocol A, serotype 2; settings: RT-qPCR serotype 2 16681
Procedure: as §1, §2, §3, §4, §5

DENV-3 strain H87 = assay: Tetravalent RT-qPCR assay Protocol A, serotype 3; settings: RT-qPCR serotype 3 H87
Procedure: as §1, §2, §3, §4, §5

DENV-4 strain H241 = assay: Tetravalent RT-qPCR assay Protocol A, serotype 4 H241; settings: RT-qPCR serotype 4 H241
Procedure: as §1, §2, §3, §4, §5

[2] = system: DENV-4 strain EDEN (SG/06K2270DK1/2005); assay: Tetravalent RT-qPCR assay Protocol A, serotype 4 EDEN; settings: RT-qPCR serotype 4 EDEN
Procedure: as §1, §2, §3, §4, §5

Compound	SI [1]	SI (DENV-1 strain TC974#666)	SI (DENV-2 strain 16681)	SI (DENV-3 strain H87)	SI (DENV-4 strain H241)	SI [2]
COc1cc(NC(C(=O)c2c[nH]c3cc(F)ccc23)c2ccc(F)cc2OCCO)cc(S(C)(=O)=O)c1 (single isomer, unassigned) [Compound 1A, 1-(6-fluoro-1H-indol-3-yl)-2-(4-fluoro-2-(2-hydroxyethoxy)phenyl)-2-((3-methoxy-5-(methylsulfonyl)phenyl)amino)ethanone]	9210	755	5790	94	9.7	1386
COc1cc(NC(C(=O)c2c[nH]c3cc(Cl)ccc23)c2ccc(F)cc2OCCO)cc(S(C)(=O)=O)c1 (single isomer, unassigned) [Compound 2A, 1-(6-chloro-1H-indol-3-yl)-2-(4-fluoro-2-(2-hydroxyethoxy)phenyl)-2-((3-methoxy-5-(methylsulfonyl)phenyl)amino)-ethanone]	16800	1960	11100	64	19	1178
COc1cc(NC(C(=O)c2c[nH]c3c(C)c(F)ccc23)c2ccc(F)cc2OCCO)cc(S(C)(=O)=O)c1 (single isomer, unassigned) [Compound 3A, 2-(4-fluoro-2-(2-hydroxyethoxy)phenyl)-1-(6-fluoro-7-methyl-1H-indol-3-yl)-2-((3-methoxy-5-(methylsulfonyl)phenyl)amino)ethanone]	8380	>1180	>5560	>80	15	>1194
COc1cc(NC(C(=O)c2c[nH]c3c(C)c(Cl)ccc23)c2ccc(F)cc2OCCO)cc(S(C)(=O)=O)c1 (single isomer, unassigned) [Compound 4B, 1-(6-chloro-7-methyl-1H-indol-3-yl)-2-(4-fluoro-2-(2-hydroxyethoxy)phenyl)-2-((3-methoxy-5-(methylsulfonyl)phenyl)amino)ethanone]	>16800	>836	>12700	>76	15	>1231
COc1cc(NC(C(=O)c2c[nH]c3cc(F)c(F)cc23)c2ccc(F)cc2OCCO)cc(S(C)(=O)=O)c1 (single isomer, unassigned) [Compound 5A, 1-(5,6-difluoro-1H-indol-3-yl)-2-(4-fluoro-2-(2-hydroxyethoxy)phenyl)-2-((3-methoxy-5-(methylsulfonyl)phenyl)-amino)ethanone]	6320	>862	5370	>36	>18	>1250
COc1cc(NC(C(=O)c2c[nH]c3cc(F)c(C)cc23)c2ccc(F)cc2OCCO)cc(S(C)(=O)=O)c1 (single isomer, unassigned) [Compound 7A, 2-(4-fluoro-2-(2-hydroxyethoxy)phenyl)-1-(6-fluoro-5-methyl-1H-indol-3-yl)-2-((3-methoxy-5-(methylsulfonyl)phenyl)amino)ethanone]	6080	>2220	5870	126	17	–
COc1cc(NC(C(=O)c2c[nH]c3c(F)cc(C)cc23)c2ccc(F)cc2OCCO)cc(S(C)(=O)=O)c1 (single isomer, unassigned) [Compound 8A, 2-(4-fluoro-2-(2-hydroxyethoxy)phenyl)-1-(7-fluoro-5-methyl-1H-indol-3-yl)-2-((3-methoxy-5-(methylsulfonyl)phenyl)amino)ethanone]	3620	>1410	2160	>75	4.9	–
COc1cc(NC(C(=O)c2c[nH]c3c(C)cc(Cl)cc23)c2ccc(F)cc2OCCO)cc(S(C)(=O)=O)c1 (single isomer, unassigned) [Compound 9A, 1-(5-chloro-7-methyl-1H-indol-3-yl)-2-(4-fluoro-2-(2-hydroxyethoxy)phenyl)-2-((3-methoxy-5-(methylsulfonyl)phenyl)amino)ethanone]	6210	>3350	>4010	>206	>22	–
COc1cc(NC(C(=O)c2c[nH]c3ccc(OC(F)(F)F)cc23)c2ccc(F)cc2OCCO)cc(S(C)(=O)=O)c1 (single isomer, unassigned) [Compound 10B, 2-(4-fluoro-2-(2-hydroxyethoxy)phenyl)-2-((3-methoxy-5-(methylsulfonyl)phenyl)amino)-1-(5-(trifluoromethoxy)-1H-indol-3-yl)ethanone]	21200	>21400	>100553	>1630	89	–
COc1cc(NC(C(=O)c2c[nH]c3cc(OC)c(OC(F)(F)F)cc23)c2ccc(F)cc2OCCO)cc(S(C)(=O)=O)c1 (single isomer, unassigned) [Compound 11B, 2-(4-fluoro-2-(2-hydroxyethoxy)phenyl)-2-((3-methoxy-5-(methyl-sulfonyl)phenyl)amino)-1-(6-methoxy-5-(trifluoromethoxy)-1H-indol-3-yl)ethanone]	24900	>5380	>43200	>502	>102	–
COc1cc(NC(C(=O)c2c[nH]c3c(C)cc(OC(F)(F)F)cc23)c2ccc(F)cc2OCCO)cc(S(C)(=O)=O)c1 (single isomer, unassigned) [Compound 12A, 2-(4-fluoro-2-(2-hydroxyethoxy)phenyl)-2-((3-methoxy-5-(methylsulfonyl)phenyl)amino)-1-(7-methyl-5-(trifluoromethoxy)-1H-indol-3-yl)ethanone]	22100	>6740	>20500	>463	47	–
